In publication PMC4831847:
Construct, isoform or probe ends are uncertain for at least one entry. At least one verdict rests on a figure or table, not on a statement of the authors.

Tested on: hPBV RdRP ΔLOOP (human picobirnavirus strain Hy005102)
Experiment: EMSA
Details: 50 mM Tris-HCl pH 7.5, 50 mM KCl, 1 mM NaN3, 5 mM beta-mercaptoethanol, 10% glycerol; 1 nM 32P-RNA, 30 min at room temperature; 15% native PAGE in ice bath; recombinant protein; label: 32P (5' end, T4 PNK)

GUAAAAUUUUCGAAUUUUAU [PBV 5'-(+)UTR]
binding result: binds
